Results reported in PMC8778449.
For at least one entry, the source does not settle the construct or the ends of the probe.

Tested on: His-MoBZIP3 (Y34) (Magnaporthe oryzae Y34)
Test: EMSA
Conditions: pH and temperature not given, recombinant protein, protein details: His (pET-28a), label: biotin

“ATTACGTATGTACGTATC (double strand) [Bio-A-box]”: binds.
